{"source": "PubChem BioAssay AID624099 (ICCB-Longwood, 2012)", "aim": "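Knock-downs relieving repression by E2 of an HPV18 LCR luciferase reporter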 (primary screen)", "cells": "human C33A cervical carcinoma cells (HPV-negative) stably expressing BPV1 E2 and an HPV18 LCR luciferase reporter", "reagent": "siRNA pool against human genes, 40 nM", "timing": "72 h", "measurement": "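HPV18 LCR reporter light per well, converted to plate-wise z-scores that exclude control wells, and averaged over triplicate plates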", "scale": "mean z-score and z-score: higher = stronger reporter signal, weaker E2 silencing", "hit rule": "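Mean z ≥ 2 together with z ≥ 2 in two or more of the three replicates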", "note": "In all, the deposit lists about 21,000 reagents; below is an unselected part. In the full data, 497 (2.4%) were called active. 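Higher z means weaker E2 silencing; only reporter increases were scored, and knock-downs that hurt cell survival may mask genuine repressor factors.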 Entries without a mark were called inactive."}
{"gene symbol": "MYH2", "mean z-score": 0.12, "z-score, replicate A": -0.12, "z-score, replicate B": -0.08, "z-score, replicate C": 0.54}
{"gene symbol": "SLC16A1", "mean z-score": 0.86, "z-score, replicate A": 0.84, "z-score, replicate B": 0.87, "z-score, replicate C": 0.88}
{"gene symbol": "HEXA", "mean z-score": -1.12, "z-score, replicate A": -1.44, "z-score, replicate B": -1.26, "z-score, replicate C": -0.66}
{"gene symbol": "ZNF547", "mean z-score": -1.8, "z-score, replicate A": -1.55, "z-score, replicate B": -2.03, "z-score, replicate C": -1.81}
{"gene symbol": "FAM117B", "mean z-score": -0.29, "z-score, replicate A": -0.28, "z-score, replicate B": -0.4, "z-score, replicate C": -0.2}
{"gene symbol": "CHPT1", "mean z-score": 1.67, "z-score, replicate A": 1.13, "z-score, replicate B": 1.82, "z-score, replicate C": 2.07}
{"gene symbol": "IL21", "mean z-score": -0.68, "z-score, replicate A": -0.88, "z-score, replicate B": -1, "z-score, replicate C": -0.16}
{"gene symbol": "TEAD1", "mean z-score": -1.28, "z-score, replicate A": -1.16, "z-score, replicate B": -1.33, "z-score, replicate C": -1.34}
{"gene symbol": "NLRX1", "mean z-score": -0.57, "z-score, replicate A": -0.52, "z-score, replicate B": -0.5, "z-score, replicate C": -0.68}
{"gene symbol": "PDCD5", "mean z-score": 0.42, "z-score, replicate A": 0.74, "z-score, replicate B": 0.06, "z-score, replicate C": 0.44}
{"gene symbol": "SDHAF3", "mean z-score": 1.13, "z-score, replicate A": 0.97, "z-score, replicate B": 1.31, "z-score, replicate C": 1.11}
{"gene symbol": "LOC388365 (retired record)", "mean z-score": -0.45, "z-score, replicate A": -0.49, "z-score, replicate B": -0.45, "z-score, replicate C": -0.41}
{"gene symbol": "HSPA12A", "mean z-score": -0.13, "z-score, replicate A": -0.3, "z-score, replicate B": -0.22, "z-score, replicate C": 0.14}
{"gene symbol": "CASP8AP2", "mean z-score": "5.78 (active)", "z-score, replicate A": 5.87, "z-score, replicate B": 5.72, "z-score, replicate C": 5.75}
{"gene symbol": "PHF8", "mean z-score": -0.58, "z-score, replicate A": 0.01, "z-score, replicate B": -0.8, "z-score, replicate C": -0.96}
{"gene symbol": "KLHDC8A", "mean z-score": 0.26, "z-score, replicate A": 0.08, "z-score, replicate B": 0.32, "z-score, replicate C": 0.4}
{"gene symbol": "FAM167A-AS1", "mean z-score": 0.42, "z-score, replicate A": 0.54, "z-score, replicate B": 0.33, "z-score, replicate C": 0.4}
{"gene symbol": "PANX1", "mean z-score": 0.28, "z-score, replicate A": 0.35, "z-score, replicate B": 0.45, "z-score, replicate C": 0.04}
{"gene symbol": "MUS81", "mean z-score": 1.33, "z-score, replicate A": 1.67, "z-score, replicate B": 1.17, "z-score, replicate C": 1.16}
{"gene symbol": "DACT1", "mean z-score": -0.1, "z-score, replicate A": 0.05, "z-score, replicate B": -0.21, "z-score, replicate C": -0.14}
{"gene symbol": "HS6ST1P1", "mean z-score": -0.13, "z-score, replicate A": -0.32, "z-score, replicate B": -0.01, "z-score, replicate C": -0.07}
{"gene symbol": "OR4A16", "mean z-score": 1.2, "z-score, replicate A": 1.34, "z-score, replicate B": 0.89, "z-score, replicate C": 1.38}
{"gene symbol": "ETHE1", "mean z-score": 0.5, "z-score, replicate A": 0.29, "z-score, replicate B": 0.43, "z-score, replicate C": 0.76}
{"gene symbol": "RTL3", "mean z-score": 1.51, "z-score, replicate A": 2.02, "z-score, replicate B": 1.3, "z-score, replicate C": 1.2}
{"gene symbol": "ERICH6B", "mean z-score": -0.25, "z-score, replicate A": 0.07, "z-score, replicate B": -0.19, "z-score, replicate C": -0.63}
{"gene symbol": "SNX21", "mean z-score": 0.31, "z-score, replicate A": 0.38, "z-score, replicate B": 0.23, "z-score, replicate C": 0.33}
{"gene symbol": "ANXA1", "mean z-score": 0.4, "z-score, replicate A": 0.55, "z-score, replicate B": 0.24, "z-score, replicate C": 0.41}
